This assay deals with CD3 receptor (CD3ε subunit of the T cell receptor complex) (human) (UniProt P07766). The experiment in a line: flow cytometry on cells. (Flow cytometry measures light scatter and fluorescence of single cells or particles in a stream.)

From paper PMC9733292, “A bispecific, crosslinking lectibody activates cytotoxic T cells and induces cancer cell death” (2022) come the findings set out here.

In the case of Stx1B-scFv OKT3 lectibody, the percent of PBMCs positive for lectibody (35.6 nM), untreated control turned out to be 49.8%.
